# PSTVd stem 15 mutant pool in Nicotiana benthamiana

Region: stem 15 of PSTVd (intermediate strain), upper and lower strand joined, each 5' to 3', the first 9 letters being the upper strand. Wild type: CUGGAGCGAUCGCUUCGG. Varied positions (N): CUGGAGCGAUNGNNUNNG.

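Three N. benthamiana plants were inoculated with the whole mutant pool. Samples came from the inoculated region at 5 days, the leaf margin at 10 and upper systemic leaves at 12.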

Values are reads per thousand in the sample; higher means more abundant, 0 means not found.
Each site shows the three plants.
"Pool" is the share in the plasmid pool used as inoculum, on the same scale.
The inoculated region was read from the minus strand, the other sites from the plus strand.

sequence,pool,inoculated region,leaf margin,systemic leaves
CUGGAGCGAUUGUUUAGG,1.03,0.352 1.09 0.298,0.0827 0 0,0 0 0
CUGGAGCGAUUGUUUAUG,0.954,2.04 1.07 0.168,0.0414 0.0273 0.0159,0 0 0
CUGGAGCGAUUGUUUCAG,1.15,2.19 1.03 1.45,0.744 0.436 0.951,0.812 0.576 0
CUGGAGCGAUUGUUUCCG,0.727,0.157 0.230 0.279,0.0414 0.0545 0.0159,0 0 0
CUGGAGCGAUUGUUUCGG,1.03,0.254 1.47 0.428,0.124 0 0.0159,0 0 0
CUGGAGCGAUUGUUUCUG,1.00,0.724 1.65 0.875,0.0414 0.0545 0.0317,0 0 0
CUGGAGCGAUUGUUUGAG,0.727,1.96 1.19 0.279,0.0207 0.0273 0,0 0 0
CUGGAGCGAUUGUUUGCG,0.857,0.313 0.293 0.205,0.0620 0 0.0317,0 0 0
CUGGAGCGAUUGUUUGGG,0.824,0.333 0.209 0.149,0.103 0.0273 0.0159,0 0 0
CUGGAGCGAUUGUUUGUG,1.00,0.411 1.21 0.465,0.0414 0.0545 0,0 0 0.0199
CUGGAGCGAUUGUUUUAG,0.889,1.74 1.24 1.84,0.786 0.354 0.888,1.01 0.665 0.458
CUGGAGCGAUUGUUUUCG,0.857,3.27 1.72 3.03,0.786 0.600 1.89,0.851 0.465 0.399
CUGGAGCGAUUGUUUUGG,0.760,2.29 1.15 1.60,0 0.0818 0.0159,0 0 0
CUGGAGCGAUUGUUUUUG,1.79,5.62 2.95 3.63,1.45 0.954 1.46,1.64 1.09 0.817
CUGGAGCGAUUUCUUAGG,0.0162,0 0 0,0 0 0,0 0 0
CUGGAGCGGUGGCAUGGG,0.0162,0 0 0,0 0 0,0 0 0
CUGGAGCGUUAGACUAAG,0.0162,0 0 0,0 0 0,0 0 0
CUGGAGCUAUAGGCUGGG,0.0162,0 0 0.0186,0 0 0,0 0 0
CUGGAGUGAUAGAGUCUG,0.0162,0 0 0.0186,0 0 0,0 0 0
CUGGAGUGAUAGAGUUUG,0.0162,0 0 0,0 0 0,0 0 0
CUGGAGUGAUCGCUUCGG,0.0162,0.137 0.168 0.261,0.207 0.409 0.476,0.495 0.820 0.917
CUGGAGUGAUUGUAUAGG,0.0162,0 0 0,0 0 0,0 0 0
CUGGAUCGAUAGACUCUG,0.0162,0 0 0,0 0 0,0 0 0
CUGGAUCGAUUGACUACG,0.0162,0 0 0,0 0 0,0 0 0
CUGGAUCGAUUGCCUAGG,0.0162,0 0 0,0 0 0,0 0 0
CUGGAUCGAUUGCGUAGG,0.0162,0 0 0,0 0 0,0 0 0
CUGGCGCGAUCGUAUGCG,0.0162,0 0 0,0 0 0,0 0 0
CUGGGGCGAUAGCGUCGG,0.0162,0 0 0,0 0 0,0 0 0
CUGGGGCGAUAGGUUCGG,0.0323,0 0 0,0 0 0,0 0 0
CUGGGGCGAUCGAAUGAG,0.0162,0 0 0,0 0 0,0 0 0
CUGGGGCGAUCGAGUGUG,0.0162,0 0 0,0 0 0,0 0 0
CUGGGGCGAUCGCUUCGG,0.0162,0.0783 0.209 0.149,0.351 0.327 0.555,0.317 0.332 0.717
CUGGGGCGAUCGUUUUGG,0.0162,0 0 0,0 0 0,0 0 0
CUGGUGCGAUAGAAUUGG,0.0162,0 0 0,0 0 0,0 0 0
CUGUAGCGAUAGGAUCGG,0.0162,0 0 0,0 0 0,0 0 0
CUGUAGCGAUAGUGUAUG,0.0162,0 0 0,0 0 0,0 0 0
CUGUAGCGAUAGUUUAUG,0.0162,0 0 0,0 0 0,0 0 0
CUGUAGCGAUCGCAUCGG,0.0162,0 0 0,0 0 0,0 0 0
CUGUAGCGAUUGCCUUAG,0.0162,0 0 0,0 0 0.0159,0 0 0
CUGUAGCGAUUGGGUUUG,0.0162,0 0 0,0 0 0,0 0 0
CUUGAGCGAUAGACUGAG,0.0162,0 0 0,0 0 0,0 0 0
CUUGAGCGAUAGCGUGGG,0.0162,0 0 0,0 0 0,0 0 0
CUUGAGCGAUAGGGUAAG,0.0162,0 0 0,0 0 0,0 0 0
CUUGAGCGAUCUCUUCGG,0.0162,0 0 0,0 0 0,0 0 0
CUUGAGCGAUGGACUAAG,0.0162,0 0 0,0 0 0,0 0 0
CUUGAGCGAUGGUUUGCG,0.0162,0 0 0,0 0 0,0 0 0
UUGGAGCGAUGGCUUUGG,0.0162,0 0 0,0 0 0,0 0 0

For reference, wild type rose from 10.2 per thousand in the pool to 285, 367, 312 (inoculated region), 785, 865, 782 (leaf margin) and 854, 898, 915 (systemic leaves).
With 36,693-63,082 reads a sample, very low values are single reads.
The authors trace changes outside the varied positions to PCR and sequencing errors or to mutation in the plant; presence does not show that a variant is infectious alone.

From the data files of Wu et al. 2024, doi:10.1371/journal.ppat.1012142.